Results of unrelated studies side by side (data: NIAID ChemDB).

Shared fields: tests in culture; species: Hepatitis B virus; cell line: HepG2.117; read-out: EC50

ECn: concentration that inhibits the pathogen or its effect by n%.

| SMILES | read by | conditions | result |
|---|---|---|---|
| CC(C)Oc1ccc(-n2c(C(=O)NCc3ccccc3)c3n(c2=O)CCN(C(=O)c2cc4c(Cl)cccc4s2)C3)cc1 | PCR | - | >5 µM |
| CNC(=O)c1cc(-n2c(=O)c3c(n4ncc(CC(C)C)c24)CN(C(=O)c2ccc(Br)c(C(F)(F)F)c2)[C@H](C)C3)nn1C | luminescence | - | ≤0.05 µM |
| C[C@@H](c1ccccc1)c1cnc([C@]2(F)CN(C(=O)c3ccc(Br)c(Cl)c3)CCS2(=O)=O)s1 | PCR | - | 0.5–5 µM |
| CNC(=O)c1ccc(-n2c(=O)c3c(n4ncc(N[C@@H](C)c5ccccc5)c24)CN(C(=O)c2ccc(Br)c(Cl)c2)CC3)cc1 | PCR | 3 d | <0.1 µM |
| C[C@@H](NC(=O)c1c2n(c(=O)n1C)CCN(C(=O)c1ccccc1)C2)c1ccccc1 | PCR | - | 0.5–5 µM |
| O=C(c1cc(F)cc(Cl)c1)N1CCS(=O)(=O)[C@H](c2cccs2)C1 | PCR | - | 0.5–5 µM |
| COc1ccc(-n2c(C(=O)NCc3ccc(OC)cc3Cl)c3n(c2=O)CCN(C(=O)c2ccc(Cl)c(Cl)c2)C3)cc1 | PCR | - | 0.5–5 µM |
| CNC(=O)c1ccc(-n2c(=O)c3c(n4ncc(Cc5ccccc5)c24)CN(C(=O)c2ccc(Br)c(C(F)(F)F)c2)[C@H](C)C3)cc1 | luminescence | - | ≤0.05 µM |
| CNC(=O)c1ccc(-n2c(=O)c3c(n4ncc(NCc5ccc(OCC(N)=O)cc5)c24)CN(C(=O)c2ccc(Cl)c(Cl)c2)CC3)cc1 | PCR | 3 d | 0.5–5 µM |
| CNC(=O)c1ccc(-n2c(=O)c3c(n4ncc(CC(C)C)c24)CN(C(=O)c2ccc(Br)c(C(F)(F)F)c2)[C@@H](C)C3)cc1 | luminescence | - | 0.05–0.5 µM |
| O=C(NCc1ccccc1)c1cnn2c3c(c(=O)n(-c4ccccc4)c12)CCN(C(=O)c1ccc(Cl)c(Cl)c1)C3 | PCR | 3 d | >5 µM |
| C[C@@H](c1cnc([C@@]2(F)CN(C(=O)c3ccc(Br)c(C#N)c3)CCS2(=O)=O)s1)c1ccccc1F | PCR | - | <0.1 µM |
| COc1ccc(CNC(=O)c2c3n(c(=O)n2-c2ccc(OCC(F)(F)F)cc2)CCN(C(=O)c2ccc(Br)c(Cl)c2)C3)c(F)c1 | PCR | - | 0.1–0.5 µM |
| C[C@@H]1CS(=O)(=O)[C@](F)(c2ncc(Cc3ccccc3)s2)CN1C(=O)c1ccc(Br)c(Cl)c1 | PCR | - | 0.1–0.5 µM |
| CC(C)Cc1cnn2c3c(c(=O)n(-c4ccc5c(c4)ncn5C)c12)C[C@H](C)N(C(=O)c1ccc(Br)c(C(F)(F)F)c1)C3 | luminescence | - | 0.05–0.5 µM |
| CNC(=O)c1ccc(-n2c(=O)c3c(n4ncc(Cc5ccccc5)c24)CN(C(=O)c2ccc(Cl)c(Cl)c2)CC3)cc1 | PCR | 3 d | <0.1 µM |
| C[C@@H](NC(=O)c1c2n(c(=O)n1-c1ccc(OCC(F)(F)F)cc1)CCN(C(=O)c1ccc(Br)c(Cl)c1)C2)c1ccccc1 | PCR | - | 0.1–0.5 µM |
| CNC(=O)c1ccc(-n2c(=O)c3c(n4ncc(Nc5ccc(F)cc5)c24)CN(C(=O)c2ccc(Br)c(C#N)c2)CC3)cc1 | PCR | 3 d | 0.1–0.5 µM |
| COc1cc(C#N)ccc1CNC(=O)c1c2n(c(=O)n1-c1ccc(OCC(F)(F)F)cc1)CCN(C(=O)c1ccc(Br)c(Cl)c1)C2 | PCR | - | 0.1–0.5 µM |
| C[C@]1(C(=O)NCc2ccccc2)CN(C(=O)c2ccc(Br)c(Cl)c2)CCS1(=O)=O | PCR | - | 0.5–5 µM |
| CNC(=O)c1ccc(-n2c(=O)c3c(n4ncc(Cc5ccc(OC(F)(F)F)cc5)c24)CN(C(=O)c2ccc(Br)c(Cl)c2)CC3)cc1 | PCR | 3 d | <0.1 µM |
| C[C@H]1Cc2c(n3ncc(Cc4ccccc4)c3n(-c3ccc(-c4nn(C)c(=O)[nH]4)cc3)c2=O)CN1C(=O)c1ccc(Br)c(C(F)(F)F)c1 | luminescence | - | 0.05–0.5 µM |
| Cc1cc2n(-c3ccccc3)c(=O)c3c(n2n1)CN(C(=O)c1ccc(Br)c(F)c1)CC3 | PCR | 3 d | >5 µM |
| CC(C)[C@H](N)C(=O)OCN(C)C(=O)c1ccc(-n2c(=O)c3c(n4ncc(CC5CC5)c24)CN(C(=O)c2ccc(Br)c(C(F)(F)F)c2)[C@@H](C)C3)cc1 | luminescence | - | >5 µM |
| N#Cc1cc(C(=O)N2CCc3c(n4ncc(Cc5ccccc5)c4n(-c4ccc(C(N)=O)cc4)c3=O)C2)ccc1Br | PCR | 3 d | >5 µM |
| Cc1ccn(-c2ccc(-n3c(=O)c4c(n5ncc(CC(C)C)c35)CN(C(=O)c3ccc(Br)c(C(F)(F)F)c3)[C@H](C)C4)cc2)n1 | luminescence | - | ≤0.05 µM |
| O=C(NCc1ccccc1)C1CN(C(=O)c2ccc(Br)c(Cl)c2)CCS1(=O)=O | PCR | - | 0.1–0.5 µM |

Two numbers with a dash give a range or band. Blank or dashed fields: not listed here. Conditions beyond the fields shown may differ between rows.